Reference: patent US20110081315A1, “NOVEL MACROCYCLIC INHIBITORS OF HEPATITIS C VIRUS REPLICATION” (INTERMUNE, INC., priority 2009, published 2011)

By UniProt entry, the sequences of proteins in these tests, tags left out. Residues count along the entry.
UniProt P27958, 1027-1657 limits assumed: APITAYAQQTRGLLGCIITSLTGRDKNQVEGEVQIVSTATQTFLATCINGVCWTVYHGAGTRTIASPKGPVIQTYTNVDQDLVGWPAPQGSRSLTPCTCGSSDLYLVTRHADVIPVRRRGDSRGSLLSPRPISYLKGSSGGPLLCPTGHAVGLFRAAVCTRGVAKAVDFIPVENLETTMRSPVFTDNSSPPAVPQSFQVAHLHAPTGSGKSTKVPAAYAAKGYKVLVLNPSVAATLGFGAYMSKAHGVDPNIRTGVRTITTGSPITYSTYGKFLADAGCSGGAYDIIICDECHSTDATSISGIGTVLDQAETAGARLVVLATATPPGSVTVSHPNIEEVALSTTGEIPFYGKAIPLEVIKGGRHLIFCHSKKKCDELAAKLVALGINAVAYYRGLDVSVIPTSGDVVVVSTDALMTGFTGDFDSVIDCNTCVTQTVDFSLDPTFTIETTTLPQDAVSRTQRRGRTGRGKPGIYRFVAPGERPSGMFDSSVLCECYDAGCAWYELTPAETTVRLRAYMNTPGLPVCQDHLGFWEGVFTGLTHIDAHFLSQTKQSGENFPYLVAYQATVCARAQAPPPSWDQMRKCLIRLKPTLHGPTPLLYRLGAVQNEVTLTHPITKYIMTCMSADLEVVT

What was measured:
[1] = tested on: hepatitis C replicon; experiment: hepatitis C replicon EC50 assay; type: cell-based, Hepatitis C virus
Description: (§1) NS3-NS4 inhibition activity can be determined using known assay methods. For example, NS3/NS4 complexes may be formed and inhibitory concentrations of test compounds determined as described in U.S. Patent Application Publication Number 2007/0054842 paragraph numbers 1497-1509, which is incorporated herein by reference in its entirety. Similarly, hepatitis C replicon EC50 may be determined using known assay methods such as described in U.S. Patent Application Publication Number 2007/0054842 paragraph numbers 1510-1515, which is incorporated herein by reference in its entirety. Assays may be conducted at ambient temperature (23° C.) in assay buffer containing 50 mM Tris-HCl, pH 7.5, 15% glycerol, 0.6 mM Lauryldimethylamine Oxide (LDAO), 25 μM NS4A peptide, and 10 mM Dithiothreitol (DTT).

[2] = target: NS3/NS4 complexes (Hepatitis C virus genotype 1a, UniProt P27958); experiment: NS3/NS4 inhibition assay (IC50); type: biochemical; conditions: NS3/NS4 activity; 23° C., 25 μM NS4A peptide
Description: as §1

CC(C)c1csc(-c2cccc3c2nc(O[C@@H]2C[C@H]4C(=O)N[C@]5(C(=O)NS(=O)(=O)C6(C)CC6)C[C@H]5/C=C\CCCCC[C@H](NC(=O)OC5COC5)C(=O)N4C2)n3C(C)C)n1
EC50 [1]: 10 to 100 nM
IC50 [2]: < 10 nM

CCn1c(O[C@@H]2C[C@H]3C(=O)N[C@]4(C(=O)NS(=O)(=O)N(C)C)C[C@H]4/C=C\CCCCC[C@H](NC(=O)OC(C)(C)C)C(=O)N3C2)nc2c(-c3nc(C(C)C)c(C)s3)cccc21 [Compound 1432]
EC50 [1]: 10 to 100 nM
IC50 [2]: < 10 nM

CC(C)n1c(O[C@@H]2C[C@H]3C(=O)N[C@]4(C(=O)O)C[C@H]4/C=C\CCCCC[C@H](NC(=O)OC(C)(C)C)C(=O)N3C2)nc2c(-c3nc(C4CCCC4)cs3)cccc21
EC50 [1]: > 100 nM
IC50 [2]: < 10 nM

CC(C)(C)OC(=O)N[C@H]1CCCCC/C=C\[C@@H]2C[C@@]2(C(=O)NS(=O)(=O)OC2CC2)NC(=O)[C@@H]2C[C@@H](OC(=O)N3Cc4cccc(F)c4C3)CN2C1=O
EC50 [1]: 10 to 100 nM
IC50 [2]: < 10 nM

CCOc1csc(-c2cccc3c2nc(O[C@@H]2C[C@H]4C(=O)N[C@]5(C(=O)NS(=O)(=O)N(C)C)C[C@H]5/C=C\CCCCC[C@H](NC(=O)OC(C)(C)C)C(=O)N4C2)n3C(C)C)n1
EC50 [1]: < 10 nM
IC50 [2]: < 10 nM

CC(C)n1c(O[C@@H]2C[C@H]3C(=O)N[C@]4(C(=O)NS(=O)(=O)C5(C)CC5)C[C@H]4/C=C\CCCCC[C@H](NC(=O)OC(C)(C)C)C(=O)N3C2)nc2c(-c3nc4c(s3)CCCC4)cccc21
EC50 [1]: < 10 nM
IC50 [2]: < 10 nM
